PubChem BioAssay AID624099 | ICCB-Longwood – 2012

- Assay: 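Knock-downs relieving repression by E2 of an HPV18 LCR luciferase reporter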 (primary screen)
- Cell system: human C33A cervical carcinoma cells (HPV-negative) stably expressing BPV1 E2 and an HPV18 LCR luciferase reporter
- Knock-down reagent: siRNA pool against human genes, 40 nM
- Duration: 72 h
- Measurement: 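HPV18 LCR reporter light per well, converted to plate-wise z-scores that exclude control wells, and averaged over triplicate plates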
- Reading the numbers: mean z-score and z-score: higher = stronger reporter signal, weaker E2 silencing
- Active means: 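Mean z ≥ 2 together with z ≥ 2 in two or more of the three replicates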
The whole screen tested about 21,000 reagents; this is a random part of them. In the full data, 497 (2.4%) were called active. 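Higher z means weaker E2 silencing; only reporter increases were scored, and knock-downs that hurt cell survival may mask genuine repressor factors.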 A number with no mark means an inactive call. The numbers tell different reagents against one gene apart.

target gene | reagent | mean z-score | z-score, replicate A | z-score, replicate B | z-score, replicate C
SORBS2 | 1 | 2.85 (active) | 2.86 | 3 | 2.69
LINC01553 | 1 | 0.8 | 2.57 | -0.15 | -0.03
UBE2Q2 | 1 | -1.99 | -1.99 | -1.9 | -2.09
ACCSL | 1 | 0.45 | 0.21 | 0.42 | 0.72
EVC2 | 1 | 2.45 (active) | 1.95 | 2.6 | 2.8
CILK1 | 1 | 1.65 | 2.04 | 1.12 | 1.8
APAF1 | 1 | 0.21 | 0.4 | 0.03 | 0.19
LINC01140 | 1 | -0.46 | -0.63 | -0.37 | -0.37
VSIG4 | 1 | 0.09 | 0.14 | 0.33 | -0.21
HOXA6 | 1 | 1.23 | 1.17 | 1.16 | 1.35
ERMARD | 1 | -0.73 | -0.68 | -0.59 | -0.92
USP28 | 1 | 0.56 | 0.42 | 0.59 | 0.65
TMC4 | 1 | 0.75 | 0.24 | 1.22 | 0.8
KDM5D | 1 | -1.42 | -1.45 | -1.2 | -1.61
NKD2 | 1 | -0.25 | -0.45 | -0.16 | -0.14
TEX35 | 1 | -1.16 | -1.22 | -1.21 | -1.04
DEF6 | 1 | 0.17 | 0.01 | 0.27 | 0.24
PYDC1 | 1 | -0.55 | -0.25 | -0.38 | -1.02
CHST8 | 1 | -0.29 | -0.07 | -0.2 | -0.59
FEZ2 | 1 | -0.43 | -0.62 | -0.33 | -0.35
FAM170A | 1 | 0.25 | 0.47 | 0.19 | 0.09
MEX3D | 1 | -2.14 | -1.92 | -2.29 | -2.22

A run of entries of the results above, as a working copy:
target gene | reagent | mean z-score | z-score, replicate A | z-score, replicate B | z-score, replicate C
CILK1 | 1 | 1.65 | 2.04 | 1.12 | 1.8
APAF1 | 1 | 0.21 | 0.4 | 0.03 | 0.19
LINC01140 | 1 | -0.46 | -0.63 | -0.37 | -0.37
VSIG4 | 1 | 0.09 | 0.14 | 0.33 | -0.21
HOXA6 | 1 | 1.23 | 1.17 | 1.16 | 1.35
ERMARD | 1 | -0.73 | -0.68 | -0.59 | -0.92
USP28 | 1 | 0.56 | 0.42 | 0.59 | 0.65
TMC4 | 1 | 0.75 | 0.24 | 1.22 | 0.8

Next results:
target gene | reagent | mean z-score | z-score, replicate A | z-score, replicate B | z-score, replicate C
NAT16 | 1 | 0.6 | 0.38 | 1.02 | 0.38
CCDC127 | 1 | 1.62 | 1.4 | 1.95 | 1.51
RNGTT | 1 | 0.24 | 0.49 | -0.05 | 0.29
LAMA1 | 1 | 0.33 | 0.4 | 0.16 | 0.42
DHX40 | 1 | 0.79 | 0.89 | 0.54 | 0.95
LMO7 | 1 | 1.49 | 1.56 | 1.4 | 1.5
SLC30A3 | 1 | -0.61 | -0.68 | -0.39 | -0.76
CXCL11 | 1 | 2.17 (active) | 1.9 | 2.38 | 2.23
TOR2A | 1 | -0.13 | -0.04 | -0.34 | -0.02
OSTF1 | 1 | 0.06 | 0.1 | -0.22 | 0.31
OSBP2 | 1 | -0.87 | -0.97 | -0.83 | -0.8
CTAG1B | 1 | -0.88 | -0.77 | -1.38 | -0.48
GTF2IRD1 | 1 | -1.5 | -1.52 | -1.64 | -1.34
BBS2 | 1 | 0.53 | 0.32 | 0.55 | 0.71
RPL23AP43 | 1 | 0.17 | 0.31 | -0.12 | 0.32
TRIML2 | 1 | 0.07 | 0.29 | -0.16 | –
CLIC3 | 1 | -1.07 | -1.33 | -0.75 | -1.14
CFDP1 | 1 | -1.19 | -1.1 | -1.31 | -1.16
LOC402563 (retired record) | 1 | 1.1 | 1.2 | 1.57 | 0.54
PRSS55 | 1 | 0.08 | 0.08 | 0.34 | -0.19
ZACN | 1 | -1.2 | -1.5 | -1.07 | -1.03
RBM33 | 1 | -0.3 | -0.46 | -0.2 | -0.26
RBM33 | 2 | -1.16 | -1.35 | -1.2 | -0.95
MAPRE3 | 1 | -0.73 | -0.63 | -1.05 | -0.49
GUSBP3 | 1 | -0.73 | -0.71 | -0.63 | -0.84
CYP2S1 | 1 | 0.31 | 0.85 | 0.16 | -0.07
CGB2 | 1 | 2.3 (active) | 2.21 | 2.39 | 2.29
S1PR4 | 1 | 0.61 | 0.9 | 0.71 | 0.23
LOC402580 (retired record) | 1 | 0.84 | 0.85 | 1.23 | 0.44
ENSA | 1 | 1.13 | 1.49 | 0.92 | 0.98
LRRC43 | 1 | 0.15 | 0.09 | 0.22 | 0.16
FYN | 1 | 0.7 | 0.76 | 0.54 | 0.81
TSG101 | 1 | 1.52 | 1.4 | 1.74 | 1.43
MT-ND4 | 1 | -0.9 | -1.09 | -1.05 | -0.57
CNTN4 | 1 | -0.18 | 0 | -0.11 | -0.43
